# Measured values taken from paper PMC3366674, “Epigenetic Tailoring for the Production of Anti-Infective Cytosporones from the Marine Fungus Leucostoma persoonii” (Marine Drugs, 2012).
# Columns and labels:
# [1] = system: methicillin-resistant Staphylococcus aureus (MRSA) USA100; assay: Microtiter MIC determination against MRSA USA100; assay type: cell-based; conditions: selectivity for bacteria relative to mammalian cells
# Procedure: The strain of MRSA used in our bioassays is a hospital-associated clone from the CDC USA 100 lineage. […] It is thus deemed an extensively drug resistant strain, and something of a worst-case scenario MRSA isolate.
# The minimum inhibitory concentration (MIC) of the pure compounds was determined as follows. Broth cultures were prepared for S. aureus strains as described above. These were diluted 1:1000 in fresh Trypticase Soy Broth (TSB) and 200 µL was applied to the wells of a sterile 96-well plate. Compounds (in DMSO) were added to wells at concentrations ranging from 1, 10, 25, 50 to 100 µg/mL in a volume no greater than 5 µL. Concentrations were adjusted to lower levels if applicable. Samples were mixed by pipetting and the plates were incubated at 37 °C overnight. MICs were determined by visual inspection for the minimum concentration of compound producing no bacterial growth, as determined by a lack of turbidity. Assays were repeated three times in order to verify the MIC determinations. […] These were incubated overnight at 37 °C and the bacterial loads of each well were determined by enumeration. Percentage killing was determined by the comparison of drug-containing wells to control wells where no compound was added.
# Plasmodium falciparum = assay: Malaria assay (luciferase-reporter Plasmodium falciparum); assay type: cell-based; conditions: 90% inhibition therapeutic index
# Procedure: Mangrove endophytes isolated as described above were subject to small-scale cultivation on Sabouraud dextrose agar (SDA), freeze dried, then extracted with methanol. Extracts at a concentration of 30 mg/mL were screened in a luciferase-reporter Plasmodium falciparum assay.
# Malaria screening was done as previously reported.
smiles,measurement,setting,value
"CCCCCCCC1OC(=O)c2cc(O)c(O)c(O)c21 (stereo not shown) [Cytosporone E, cytosporone E]",TI90 = IC90 A549/MIC90 (MRSA),[1]; listed as Cytosporone E (3),> 10
same,TI90 = IC90 A549/IC90 P. falciparum,Plasmodium falciparum,33
same,TI90 = IC90 A549/IC90 P. falciparum,Plasmodium falciparum; listed as Cytosporone E (3),> 10
"CCCCCCCC(=O)c1c(O)cc(O)cc1CC(=O)OCC [Cytosporone B, cytosporone B]",TI90 = IC90 A549/MIC90 (MRSA),[1],6
